Source: patent US20070049564A1 (Wyeth, priority 2005, published 2007)

Assays:
Assay in all cases: MIC, broth microdilution
S. cholerasius GC 1355 = tested on: S. cholerasius GC 1355
Salmonella spp. GC 235 = tested on: Salmonella spp. GC 235
Salmonella spp. GC 566 = tested on: Salmonella spp. GC 566

Measured: MINIMAL INHIBITORY CONCENTRATION MIC

CC(C)COC(=O)N(CC(=O)Nc1cc(N(C)C)c2c(c1O)C(=O)C1=C(O)[C@]3(O)C(=O)C(C(N)=O)=C(O)[C@@H](N(C)C)[C@@H]3C[C@@H]1C2)C(C)(C)C [Example 59, isobutyl 2-{[(5aR,6aS,7S,10aS)-9-(aminocarbonyl)-4,7-bis(dimethylamino)-1,8,10a,11-tetrahydroxy-10,12-dioxo-5,5a,6,6a,7,10,10a,12-octahydrotetracen-2-yl]amino}-2-oxoethyl(tert-butyl)carbamate]
>64 UG/ML: S. cholerasius GC 1355; Human Serum | S. cholerasius GC 1355; Mouse Serum | S. cholerasius GC 1355; Water | Salmonella spp. GC 235; Human Serum | Salmonella spp. GC 235; Mouse Serum | Salmonella spp. GC 235; Water | Salmonella spp. GC 566; Human Serum | Salmonella spp. GC 566; Mouse Serum | Salmonella spp. GC 566; Water

COC(=O)N(CC(=O)Nc1cc(N(C)C)c2c(c1O)C(=O)C1=C(O)[C@]3(O)C(=O)C(C(N)=O)=C(O)[C@@H](N(C)C)[C@@H]3C[C@@H]1C2)C(C)(C)C [Example 60, methyl 2-{[(5aR,6aS,7S,10aS)-9-(aminocarbonyl)-4,7-bis(dimethylamino)-1,8,10a,11-tetrahydroxy-10,12-dioxo-5,5a,6,6a,7,10,10a,12-octahydrotetracen-2-yl]amino}-2-oxoethyl(tert-butyl)carbamate]
>64 UG/ML: S. cholerasius GC 1355; Human Serum | S. cholerasius GC 1355; Mouse Serum | S. cholerasius GC 1355; Water | Salmonella spp. GC 235; Human Serum | Salmonella spp. GC 235; Mouse Serum | Salmonella spp. GC 235; Water | Salmonella spp. GC 566; Human Serum | Salmonella spp. GC 566; Mouse Serum | Salmonella spp. GC 566; Water
